The test system of one data set is erythrocytes. The data set is described as follows: Haemolysis comparison test (extinction of supernatant at 576 nm). The class given is cell-based, human. As to the method: Of this stock solution, three dilutions were produced in accordance with Table 2 and their haemolytic action also investigated.
Production of the erythrocyte suspension: freshly taken human blood was diluted with approximately 5 times the volume of sterile 0.9% NaCl solution (batch designation: 9055A64 produced by the company Braun Melsungen) and centrifuged for 5 minutes at a relative centrifugal acceleration of 2000. The supernatant solution was then drawn off and the sedimented erythrocytes treated twice more in the same way.
The erythrocytes thus washed were counted in a Neubauer counting chamber and—where necessary—diluted again with sterile 0.9% NaCl solution to a final concentration of approx. 5·10^8 erythrocytes per ml. This suspension is according to DIN standard usable at room temperature for up to 6 hours.
Haemolysis comparison test: 5 ml of the solution to be tested was mixed with 1 ml of the above erythrocyte suspension, transferred to a cleaned centrifuge tube and incubated in a water bath at 37±1° C. for 20 minutes. Centrifuging was then performed for 5 minutes at a relative centrifugal acceleration of 2000.
The extinction of the supernatant liquid was measured. 5 ml of the 0.9% NaCl solution and the 5% glucose solution, which were mixed with 1 ml of the erythrocyte suspension, also incubated at 37±1° C. for 20 minutes and then centrifuged as above, served as negative controls.
For the test for haemolysis, the extinctions of the respective supernatants were measured in a photometer against the negative controls at a wavelength of 576 nm using a cuvette 10 mm in thickness. Owing to the differing stainings of the solutions, the extinction was also measured for the purpose of comparing the solutions without erythrocyte suspension.

A further data set deals with sheep erythrocytes. The note with it: compared with commercially available amphotericin B deoxycholate formulations.

“Amphotericin B-HES Conjugate [Ampho HES]”: the haemolytic activity entry with erythrocytes (0.4 mg/ml amphotericin B in the test batch) is “slight haemolytic activity”; in the data set on erythrocytes (0.83 mg/ml amphotericin B in the test batch), “strong haemolytic activity”. Also, the haemolytic action result in the data set on erythrocytes (up to 0.2 mg amphotericin B per ml) is “no haemolytic action”. Further, the “in vitro toxicity (haemolysis)” value in the data set on sheep erythrocytes is on record as “considerably less”.

The values above are taken from US7115576B2, “Water-soluble antibiotic comprising an amino sugar, in the form of a polysaccharide conjugate” (Fresenius Kabi Deutschland GmbH, priority 2001, dated 2006).
